Compound potency records, mixed from different reports. Data source: NIAID ChemDB in PubChem.

Shared fields: toxicity to cultured cells; cell line: MT-4; read-out: CC50

Neighbouring rows are from separate reports. An empty or dashed field is not shown. CCn is the concentration with n% toxicity to the cells.

smiles,read by,result
Nc1nc2c(ncn2[C@@H]2O[C@H](CO)C3OC32)c(=O)[nH]1,,>940 µM
CCc1c(Cc2ccc(OC)c(OC)c2)n(COCC2CC2)c(=O)[nH]c1=O,MTT,>100 µM
CCOC(=O)c1cc2c3ccccc3c3ccc(N)cc3n2c1C,,21 µM
c1ccc2c(c1)nnc1ccnn12,,>200 µM
CCOC(=O)c1cc(-c2cccc(OC)c2)n(-c2cccc(N=[N+]=[N-])c2)c1C,,6.4 µM
C=C(C)[C@@H]1CC[C@]2(C(=O)OC[C@H]3OC(n4cc(C)c(OC(=O)OCC)nc4=O)C[C@@H]3N=[N+]=[N-])CC[C@]3(C)[C@H](CC[C@@H]4[C@@]5(C)CC[C@H](O)C(C)(C)[C@@H]5CC[C@]43C)[C@@H]12,,35 µM
CC1=CN([C@@H]2CS[C@@H](CO)O2)S(=O)(=O)NC1=O,,>100 µg/mL
COc1ccc(NC(=S)NNC(=O)CNC(=O)COc2ccc3ccccc3c2)cc1,MTT,13.2 µg/mL
CCOCn1c(Cc2ccccc2)c(C(C)C)c(=O)[nH]c1=O,MTT,>100 µM
Nc1ncnc2c1ncn2[C@H]1CC[C@](/C=C/P(=O)(O)O)(C(F)(F)F)C1,MTT,>100 µM
NC1=NS(=O)(=O)N(Cc2ccccc2)c2ncn([C@H]3CS[C@@H](CO)O3)c21,,>100 µg/mL
CCc1c(Cc2cc(C)cc(C)c2)n(COCCc2ccccc2)c(=O)[nH]c1=O,MTT,41 µM
Nc1nc(N)c2ncn([C@H]3CC[C@](/C=C/P(=O)(O)O)(C(F)(F)F)C3)c2n1,MTT,>100 µM
CCOC(=O)c1cc(-c2cccc(Br)c2)n(-c2cccc(OC)c2)c1C,,143 µM
CCc1c(Cc2ccc(OC)c(OC)c2)n(COCCCc2ccccc2)c(=O)[nH]c1=O,MTT,38 µM
COc1cccc(S(=O)(=O)n2c(=O)[nH]c3ccc(Cl)cc32)c1,MTS,>369 µM
O=C1C=CN([C@H]2CS[C@@H](CO)O2)S(=O)(=O)N1,,>100 µg/mL
CCc1c(Cc2ccc(C)cc2)n(COCCCc2ccccc2)c(=O)[nH]c1=O,MTT,43 µM
Nc1ccn([C@@H]2CC[C@H](CO)O2)c(=O)n1,,20 µM
CCc1c(Cc2ccc(OC)c(OC)c2)n(COCc2ccccc2)c(=O)[nH]c1=O,MTT,80 µM
CCCc1cc(=O)oc2c3c(c4c(c12)OC(C)(C)C=C4)O[C@H](C)C[C@@H]3O,trypan blue,23 µM
CCc1c(Cc2ccc(C)cc2)n(COCC2CC2)c(=O)[nH]c1=O,MTT,>100 µM
CCOP(=O)(/C=C/[C@]1(C(F)(F)F)CC[C@H](n2cnc3c(Cl)nc(N)nc32)C1)OCC,MTT,>100 µM
NC1=NS(=O)(=O)N(Cc2ccccc2)c2ncn([C@@H]3CS[C@@H](CO)O3)c21,,>100 µg/mL
O=C(COc1ccc2ccccc2c1)NCc1nnc(Nc2ccccc2)s1,MTT,0.96 µg/mL
CCc1c(Cc2ccc(C)cc2)n(COCc2ccccc2)c(=O)[nH]c1=O,MTT,44 µM
O=[N+]([O-])c1cnn2c1nnc1ccc(Cl)cc12,,1.7 µM
N#Cc1ccc(-c2csc(N/N=C/c3cccnc3)n2)cc1,MTT,7.73 µM
CCOC(=O)c1cnn2c1n[n+]([O-])c1ccc(Cl)cc12,,13 µM
FC(F)(F)[C@@]1(C#CC2CC2)OC(=S)Nc2ccc(Cl)cc21,MTT,40 µg/mL
O=[N+]([O-])c1cnn2c1nnc1ccccc12,,0.8 µM
CCCCCCCC/C=C\CCCCC(CCC(=O)O)NC1c2ccc3cc4c5c6c(cc7ccc8cc9cc1c1c9c9c8c7c6c9c6c1c2c3c56)C4,trypan blue,>1000 µM
CCOC(=O)c1cc2c3cc(OC)ccc3c3c(N)cccc3n2c1C,,>200 µM
O=C(c1ccccc1)n1c(=O)ccn([C@@H]2C=C[C@@H](O)CC2)c1=O,MTT,>25 µg/mL
O=C(COc1ccc2ccccc2c1)NCC(=O)NNC(=S)Nc1ccccc1,MTT,≥69.9 µg/mL
C/C(=N\Nc1nc(-c2ccc(Cl)cc2)cs1)c1ccc(-c2ccc(Br)cc2)cc1,MTT,10.23 µM
O=C(COc1ccc2ccccc2c1)NCC(=O)NNC(=S)Nc1ccc(Br)cc1,MTT,31.2 µg/mL
[O-][n+]1nc2c(-c3ccc(F)cc3)cnn2c2cc(Cl)ccc21,,>200 µM
O=C1C=C[C@@H](n2ccc(=O)n(C(=O)c3ccccc3)c2=O)CC1,MTT,0.5 µg/mL
C=C(C)[C@@H]1CC[C@]2(C(=O)OC[C@@H]3OC(n4ccc(N(C(=O)OCC)C(=O)OCC)nc4=O)CS3)CC[C@]3(C)[C@H](CC[C@@H]4[C@@]5(C)CC[C@H](O)C(C)(C)[C@@H]5CC[C@]43C)[C@@H]12,,>50 µM
CCc1c(Cc2cc(C)cc(C)c2)n(COCCCc2ccccc2)c(=O)[nH]c1=O,MTT,43 µM
Cc1ccc(NC(=S)NNC(=O)CNC(=O)COc2ccc3ccccc3c2)cc1,MTT,91.4 µg/mL
CC1=CN([C@H]2CS[C@@H](CO)O2)S(=O)(=O)NC1=O,,>100 µg/mL
CCOC(=O)c1cnn2c1nnc1ccc(Cl)cc12,,5.2 µM
N#Cc1ccc(-c2csc(N/N=C/c3ccncc3)n2)cc1,MTT,53.1 µM
O=C(c1ccccc1)n1c(=O)ccn([C@H]2C=CC3(CC2)O[C@H](c2ccccc2)[C@@H](c2ccccc2)O3)c1=O,MTT,>25 µg/mL
O=[N+]([O-])c1cnn2c1n[n+]([O-])c1cc(Cl)ccc12,,1.4 µM
NC(=O)C[C@H](NC(=O)CNC1c2ccc3cc4c5c6c(cc7ccc8cc9cc1c1c9c9c8c7c6c9c6c1c2c3c56)C4)C(=O)O,trypan blue,>700 µM
C/C(=N\Nc1nc(-c2ccc(C#N)cc2)cs1)c1ccc2c(c1)OCO2,MTT,68.28 µM
COC(=O)c1cnn2c1n[n+]([O-])c1ccccc12,,98 µM

A second listing of 7 rows from above:

smiles,read by,result
O=C1C=C[C@@H](n2ccc(=O)n(C(=O)c3ccccc3)c2=O)CC1,MTT,0.5 µg/mL
Nc1nc2c(ncn2[C@@H]2O[C@H](CO)C3OC32)c(=O)[nH]1,,>940 µM
N#Cc1ccc(-c2csc(N/N=C/c3cccnc3)n2)cc1,MTT,7.73 µM
O=C(COc1ccc2ccccc2c1)NCC(=O)NNC(=S)Nc1ccc(Br)cc1,MTT,31.2 µg/mL
CC1=CN([C@@H]2CS[C@@H](CO)O2)S(=O)(=O)NC1=O,,>100 µg/mL
O=C(COc1ccc2ccccc2c1)NCc1nnc(Nc2ccccc2)s1,MTT,0.96 µg/mL
CC1=CN([C@H]2CS[C@@H](CO)O2)S(=O)(=O)NC1=O,,>100 µg/mL